Measured values from several laboratories, pooled; numbers as filed in NIAID ChemDB.

Common to all: tests on isolated targets; species: HIV-1; protein: Reverse transcriptase; method: ELISA; read-out: inhibition

Lines come from different laboratories, so protocols vary. Percent inhibition refers to the dose given; in toxicity tests it is the harm to the cells.

{"compound": "Cc1cccc2nc(-c3ccccc3Cl)c(NC3CCCC3)n12", "tested at": "50 µM", "value": "88.7%"}
{"compound": "[Cs+]", "tested at": "100 µM", "value": "1%"}
{"compound": "Cc1ccc(CN2C(=O)CSC2c2c(F)cccc2F)o1", "tested at": "10 µg/mL", "value": "26.3%"}
{"compound": "COc1cc(/C=C/C(=O)CC(=O)/C=C/c2ccc(O)c(OC)c2)ccc1O", "tested at": "100 µM", "value": "29%"}
{"compound": "CC(=O)N(/C=C/c1ccccc1Br)Cc1c(F)cccc1F", "tested at": "200 µg/mL", "value": "57.33%"}
{"compound": "Clc1ccccc1-c1nc2cccc(Br)n2c1NC1CCCCC1", "tested at": "50 µM", "value": "93.9%"}
{"compound": "CCN(/C=C/c1ccc(OC)cc1OC)C(C)=O", "tested at": "200 µg/mL", "value": "34.73%"}
{"compound": "Clc1ccccc1-c1nc2ccc3ccccc3n2c1NC1CCCCC1", "tested at": "50 µM", "value": "87.5%"}
{"compound": "[O]=[V+2]", "tested at": "10 µM", "value": "34%"}
{"compound": "Cc1cccc2nc(-c3ccccc3Cl)c(NC3CCCCC3)n12", "tested at": "50 µM", "value": "96.6%"}
{"compound": "[Sr+2]", "tested at": "100 µM", "value": "2%"}
{"compound": "CC(=O)N(C)/C=C/c1ccc(Br)cc1", "tested at": "200 µg/mL", "value": "16.59%"}
{"compound": "[Tl+]", "tested at": "100 µM", "value": "5%"}
{"compound": "CO[C@H]1O[C@H](CN2C(=O)CS[C@H]2c2c(Cl)cccc2Cl)[C@@H](O)[C@H](O)[C@H]1O", "tested at": "25 µg/mL", "value": "39.4%"}
{"compound": "Cc1cccc(N2C(=O)CSC23CCCCC3)n1", "tested at": "10 µg/mL", "value": "22%"}
{"compound": "CC1=C(/C=C/C(C)=C/C=C/C(C)=C/C(=O)O)C(C)(C)CCC1", "tested at": "200 µM", "value": "50%"}
{"compound": "[Li+]", "tested at": "10 µM", "value": "3%"}
{"compound": "O=C1CSC(c2c(F)cccc2Cl)N1Cc1ccco1", "tested at": "10 µg/mL", "value": "43.56%"}
{"compound": "O=[Se]([O-])[O-]", "tested at": "10 µM", "value": "16%"}
{"compound": "CN(C)c1ccc(C2SCC(=O)N2c2ccccn2)cc1", "tested at": "10 µg/mL", "value": "44.9%"}
{"compound": "Cc1ccc2nc(-c3ccccc3Cl)c(NC3CCCCC3)n2c1", "tested at": "50 µM", "value": "89.2%"}
{"compound": "CN=C1CN=C(c2ccc[nH]2)c2cc(Cl)ccc2N1", "tested at": "250 µM", "value": "84%"}
{"compound": "O=C1CSC(c2ccnc3ccccc23)N1c1ccccn1", "tested at": "10 µg/mL", "value": "19.2%"}
{"compound": "O=[As]O", "tested at": "100 µM", "value": "37%"}
{"compound": "CN(C)c1ccc(C2SCC(=O)N2Cc2ccco2)cc1", "tested at": "10 µg/mL", "value": "33.36%"}
{"compound": "CC(=O)N(/C=C/c1ccccc1Br)Cc1cc(F)cc(F)c1", "tested at": "200 µg/mL", "value": "88.89%"}
{"compound": "CC(C)(C)[Si](C)(C)OC[C@H]1O[C@@H](n2cnc3c(N)ncnc32)[C@H](O[Si](C)(C)C(C)(C)C)C12OS(=O)(=O)C=C2N", "tested at": "16 µM", "value": "67%"}

2 of the rows above, restated:

| compound | tested at | value |
|---|---|---|
| CN(C)c1ccc(C2SCC(=O)N2c2ccccn2)cc1 | 10 µg/mL | 44.9% |
| CCN(/C=C/c1ccc(OC)cc1OC)C(C)=O | 200 µg/mL | 34.73% |